Results as given in the supplement of paper PMC9931576.
Human monoclonal antibodies against the spike receptor-binding domain (heavy:light variable regions). IC50 against pseudoviruses bearing the spike of naturally observed variants; lower = stronger; >10 µg/ml means not reached at the top dose. No active / inactive call. The stated detection limit is 0.0005 µg/ml; values near or below 0.001 µg/ml lie at the floor of the assay.

How the values were obtained:
Test in all cases: pseudovirus neutralization IC50; higher = weaker neutralization
[1] = target: SARS-CoV-2 Omicron BA.1 spike pseudovirus
Experimental: (§1)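 Single-round VSV luciferase pseudovirus mixed with antibody dilutions for 1 h and put on Huh-7 cells for about a day; IC50 from the dose curve.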

[2] = target: SARS-CoV-2 Omicron BA.2 spike pseudovirus
Experimental: as §1

[3] = target: SARS-CoV-2 Omicron BA.2.75 spike pseudovirus
Experimental: as §1

[4] = target: SARS-CoV-2 Omicron BA.5 spike pseudovirus
Experimental: as §1

[5] = target: SARS-CoV-2 Omicron BQ.1.1 spike pseudovirus
Experimental: as §1

[6] = target: SARS-CoV-2 Omicron XBB spike pseudovirus
Experimental: as §1

[7] = target: SARS-CoV-2 early D614G spike pseudovirus
Experimental: as §1

B1: BD56-1416 (protein)
chain 1: QVQLVQSGAEVKKPGASVKVSCKASGYSFTSYGISWVRQAPGQGLEWMGWISTYDVNTNYAQKFQGRVIMTTDTSTSTVYMELRSLRSDDTAVYFCARVFDFWSGYTQYYFDYWGQGTLVTVSS
chain 2: EIVMTQSPAILSVSSGERATLSCRASQSVNSNLAWYQQKPGQAPRLLIYGASTRATGIPVRFSGSGSGTDFTLTISSLQSEDFAVYYCQQYDNWPPTWTFGQGTKVEIK
For B1, the “pseudovirus neutralization IC50” value [1] was 0.617 µg/mL, the “pseudovirus neutralization IC50” value [2] was 1.4 µg/mL and the “pseudovirus neutralization IC50” value [3] was 0.569 µg/mL. For the same binder, the “pseudovirus neutralization IC50” value [4] was 4.63 µg/mL, the “pseudovirus neutralization IC50” value [5] was 2.35 µg/mL and the “pseudovirus neutralization IC50” value [6] was 3.04 µg/mL. The “pseudovirus neutralization IC50” value [7] was 2.78 µg/mL.

B2: BD56-1417 (protein)
chain 1: EVQLVESGGGLIKPGGSLRLSCVASGFSFSDAWMSWVRQAPGKGLEWVGHIKSYTDGGTTDYAAPVKGRFTISRDDSKNTVYLQMNSLKTEDTAVYYCTEDWYNWNAPDLNGMDVWGQGTTVTVSS
chain 2: DIQMTQSPSSLSASVGDRVTITCRASQSISRYLNWYQKKPGKAPKLLIYAASNLQSGVPSRFSGSGSGTDFTLTISSLQPEDFATYYCQQSYSTPWTFGQGTKVEIK
In the case of B2, the “pseudovirus neutralization IC50” value [1] is reported as 1.61 µg/mL, the “pseudovirus neutralization IC50” value [2] is reported as 1.32 µg/mL and the “pseudovirus neutralization IC50” value [3] is reported as 0.514 µg/mL. The “pseudovirus neutralization IC50” value [4] was 1.79 µg/mL, the “pseudovirus neutralization IC50” value [5] was 2.29 µg/mL and the “pseudovirus neutralization IC50” value [6] was 2.93 µg/mL. The “pseudovirus neutralization IC50” value [7] was 2.71 µg/mL.

B3: BD56-1426 (protein)
chain 1: EVQLVESGGDLVKPGGSLRLSCAGSGFSFSNAWVSWVRQAPGKGLEWVGRIKDKTDGGTTDYAAPVKGRFIISRDDSKNTLYLQMNRLRTEDTAVYYCSTGVDIVLMMYPDDAFDIWGQGTMVTVSS
chain 2: SSELTQDPAVSVALGQTVRLTCQGDSLRTYYASWYQQKPGQAPVLVIYGKNNRPSGIPDRFSGSTSGNTASLTITGAQAEDEADYYCNSRDSSGNHVVFGGGTKLTVL
In the case of B3, the “pseudovirus neutralization IC50” value [1] is reported as greater than 10 µg/mL, the “pseudovirus neutralization IC50” value [2] is reported as greater than 10 µg/mL and the “pseudovirus neutralization IC50” value [3] is reported as greater than 10 µg/mL. For the same binder, the “pseudovirus neutralization IC50” value [4] was greater than 10 µg/mL, the “pseudovirus neutralization IC50” value [5] was greater than 10 µg/mL and the “pseudovirus neutralization IC50” value [6] was greater than 10 µg/mL. For the same binder, the “pseudovirus neutralization IC50” value [7] was greater than 10 µg/mL.

B4: COV2-2819 (protein)
chain 1: QVQLQESGPGLVKPSQTLSLTCTVSGDSISSAGYYWSWIRQHPGKGLEWIGYIYYSGRTYYNPSLKSRVTMSVDTSKNQFSLRLRSVTAADTAVYYCARVVPTRGPVAWFDPWGQGTLVTVSS
chain 2: DIQMTQSPSSLSASVGDRVTITCRASQSISSYLNWYQQRPGKAPKLLIYAASSLQSGVPSRFSGSGSGTDFTLTISTLQPEDFATYYCQQSYSTLLYTFGQGTKLEIK
B4 was tested, and the “pseudovirus neutralization IC50” value [1] was greater than 10 µg/mL, the “pseudovirus neutralization IC50” value [2] was greater than 10 µg/mL and the “pseudovirus neutralization IC50” value [3] was greater than 10 µg/mL. For the same binder, the “pseudovirus neutralization IC50” value [4] was greater than 10 µg/mL, the “pseudovirus neutralization IC50” value [5] was greater than 10 µg/mL and the “pseudovirus neutralization IC50” value [6] was greater than 10 µg/mL. The “pseudovirus neutralization IC50” value [7] was 0.00672 µg/mL.

B5: BD56-1432 (protein)
chain 1: QVQLVESGGGVVQPGRSLRLSCAVSGFTFRNHGMHWVRQAPGKGLEWVAVIWYDGTNKYYADSVKGRFTISRDNSKNTLYLQMNSLRAEDTAVYYCARDDGVGGTMDDYFDYWGQGTLVTVSS
chain 2: QSVLTQPASASGTPGQRVTISCSGSGSNIGDNYVYWYQQVPGTAPKLLIYRNSQRPSGVPDRFSGSKSGTSASLAISGLRPEDEADYYCAAWDDSLGGWVFGGGTKVTVL
For B5, the “pseudovirus neutralization IC50” value [1] was 0.556 µg/mL, the “pseudovirus neutralization IC50” value [2] was 0.423 µg/mL and the “pseudovirus neutralization IC50” value [3] was 0.311 µg/mL. The “pseudovirus neutralization IC50” value [4] was 0.268 µg/mL, the “pseudovirus neutralization IC50” value [5] was 1.3 µg/mL and the “pseudovirus neutralization IC50” value [6] was 1.12 µg/mL. For the same binder, the “pseudovirus neutralization IC50” value [7] was 1.15 µg/mL.

B6: BD56-1437 (protein)
chain 1: EVQVVESGGGLVQPGGSLRLSCAASGFTFSNYDMHWVRQVTGKGLEWVSIIGTAGDAYYPDSVKGRFTSSRENAKNSLYLQMNSLRAGDTGVYYCARGRGGTYYEGPYLDYWGQGTLVTVSS
chain 2: DIQMTQSPSSLSASVGDRVTITCRASQTIRNYLNWYQQKPGKAPKLLIYAASSLQSGVPSRFSGSGSGTEFSLIISSLQPEDFATYYCQQSYSTPPLTFGGGTKVEIK
In the case of B6, the “pseudovirus neutralization IC50” value [1] is reported as greater than 10 µg/mL, the “pseudovirus neutralization IC50” value [2] is reported as greater than 10 µg/mL and the “pseudovirus neutralization IC50” value [3] is reported as greater than 10 µg/mL. For the same binder, the “pseudovirus neutralization IC50” value [4] was greater than 10 µg/mL, the “pseudovirus neutralization IC50” value [5] was greater than 10 µg/mL and the “pseudovirus neutralization IC50” value [6] was greater than 10 µg/mL. For the same binder, the “pseudovirus neutralization IC50” value [7] was greater than 10 µg/mL.

B7: BD56-1438 (protein)
chain 1: EVQLVESGGGLVQPGGSLRLSCAASGFTFSRYDMHWVRQAAGKGLEWVSLIGTAGDTYYPGSVKGRFTISRENAKNSLYLQMNSLTVGDTAVYYCARSAEIFGVEDLGVYGMDVWGQGTTVTVSS
chain 2: DIQMTQSPSSLSASVGDTVTITCRASQSVTRFLNWYQQRPGKAPKLLISAASILQSGVPSRFSGSGSGTDFTLTISSLQPEDFATYYCQQSYSTPSWTFGQGTELEIK
In the case of B7, the “pseudovirus neutralization IC50” value [1] is reported as greater than 10 µg/mL, the “pseudovirus neutralization IC50” value [2] is reported as greater than 10 µg/mL and the “pseudovirus neutralization IC50” value [3] is reported as greater than 10 µg/mL. The “pseudovirus neutralization IC50” value [4] was greater than 10 µg/mL, the “pseudovirus neutralization IC50” value [5] was greater than 10 µg/mL and the “pseudovirus neutralization IC50” value [6] was greater than 10 µg/mL. For the same binder, the “pseudovirus neutralization IC50” value [7] was greater than 10 µg/mL.

B8: BD56-1441 (protein)
chain 1: EVQLVESGGGLVQPGGSLRLSCAASGFTFSSYDMHWVRQATGKGLEWVSVIGTAGDTYYSGSVKGRFTISRENAKNSVYLQMNSLRVGDTAVYYCARGDMIKVRGVTYYYYKMDVWGQGTTVTVSS
chain 2: DIQMTQSPSSLSASVGDRVTITCRASQSISSFLNWYQLKPGKAPKLLIYAAASLQSGVPSRFSGSGSGTDFTLTISSLQPEDFATYYCQQSYSQPEVTFGQGTRLEIK
With B8 the “pseudovirus neutralization IC50” value [1] was greater than 10 µg/mL, the “pseudovirus neutralization IC50” value [2] was greater than 10 µg/mL and the “pseudovirus neutralization IC50” value [3] was greater than 10 µg/mL. For the same binder, the “pseudovirus neutralization IC50” value [4] was greater than 10 µg/mL, the “pseudovirus neutralization IC50” value [5] was greater than 10 µg/mL and the “pseudovirus neutralization IC50” value [6] was greater than 10 µg/mL. For the same binder, the “pseudovirus neutralization IC50” value [7] was greater than 10 µg/mL.

B9: BD56-1442 (protein)
chain 1: QVQLVESGGGLVKPGGSLRLSCTASGFTFSDYYMSWIRQAPGKGLEWVSYIDTRGRNIYYGDSVKGRFAMSRDNARNSLSLQMNSLRAEDTAVYYCARARVISEWFDEGYYMDVWGKGTSVTVYS
chain 2: EIVLTQSPGTLSSSPGERATLSCRASQSVSSTFLAWYQQKPGQAPRLLIYGASSRATGIPDRFSGSGSGTDFSLTISRLEPEDFAVYYCQQSDSSLAITFGQGTRLEIK
With B9 the “pseudovirus neutralization IC50” value [1] was greater than 10 µg/mL, the “pseudovirus neutralization IC50” value [2] was greater than 10 µg/mL and the “pseudovirus neutralization IC50” value [3] was greater than 10 µg/mL. For the same binder, the “pseudovirus neutralization IC50” value [4] was greater than 10 µg/mL, the “pseudovirus neutralization IC50” value [5] was greater than 10 µg/mL and the “pseudovirus neutralization IC50” value [6] was greater than 10 µg/mL. The “pseudovirus neutralization IC50” value [7] was greater than 10 µg/mL.

B10: BD56-1444 (protein)
chain 1: QVQLVESGGGVVQPGRSLRLSCAASGFTFNTYAMHWVRQAPVAGLEWVATILSDGTGKFYADSVKGRFTISRDNSKNTLYLQMNSLRGEDTAVYYCARDSSSAHWLVSWFDPWGQGTLVTVSS
chain 2: DIQMTQSPSSLSASVGDRVTITCRASQSINNYLNWYQQKPGKAPTLLIYVASNLQSGVPSRFSGSGSGTDFTLTISSLQPEDFATYYCQQSYSTPPWTFGQGTKLEIK
With B10 the “pseudovirus neutralization IC50” value [1] was greater than 10 µg/mL, the “pseudovirus neutralization IC50” value [2] was greater than 10 µg/mL and the “pseudovirus neutralization IC50” value [3] was greater than 10 µg/mL. For the same binder, the “pseudovirus neutralization IC50” value [4] was greater than 10 µg/mL, the “pseudovirus neutralization IC50” value [5] was greater than 10 µg/mL and the “pseudovirus neutralization IC50” value [6] was greater than 10 µg/mL. The “pseudovirus neutralization IC50” value [7] was 2.29 µg/mL.

B11: BD56-1448 (protein)
chain 1: EVQLVESGGGLVKPGGSLRLSCAASGFSFSDAWMNWVRQAPGKGLEWVGRIKNKIDDATTDYAAPVNGRFSISRDDSKSTLYLQMNSLKTEDTAVYYCATGVDIVVMVYVDDAFDIWGQGTMVTVSS
chain 2: SSELTQDPAVSVALGQTVRITCQGDSLRNYYASWYQQKPGQAPVLVIYGKNNRPSGIPDRFSGSSSRNVASLTITGAQAEDEADYYCNSRDSSGNHVVFGGGTKLTVL
With B11 the “pseudovirus neutralization IC50” value [1] was greater than 10 µg/mL, the “pseudovirus neutralization IC50” value [2] was greater than 10 µg/mL and the “pseudovirus neutralization IC50” value [3] was greater than 10 µg/mL. The “pseudovirus neutralization IC50” value [4] was greater than 10 µg/mL, the “pseudovirus neutralization IC50” value [5] was greater than 10 µg/mL and the “pseudovirus neutralization IC50” value [6] was greater than 10 µg/mL. For the same binder, the “pseudovirus neutralization IC50” value [7] was greater than 10 µg/mL.

B12: BD56-1450 (protein)
chain 1: QLQLQESGPGLVKPSETLSLTCTVSGGSVSSRSYYWGWIRQPPGKGLEWIGSFSFSGSTYFNPSLKSRVTIPVDTSKNQFSLRLTSVTAADTAVYYCARVGGEGDYFDYWGQGSLVTVSS
chain 2: DIQMTQSPSTLPASVGDRVTITCRASQSISRWLAWYQQKPGKAPKLLIYMASNLESGVPSRFSGSGSGTEFTLTISSLQPDDFATYYCQQYNTYRTFGQGTKVEIK
For B12, the “pseudovirus neutralization IC50” value [1] was greater than 10 µg/mL, the “pseudovirus neutralization IC50” value [2] was greater than 10 µg/mL and the “pseudovirus neutralization IC50” value [3] was greater than 10 µg/mL. The “pseudovirus neutralization IC50” value [4] was greater than 10 µg/mL, the “pseudovirus neutralization IC50” value [5] was greater than 10 µg/mL and the “pseudovirus neutralization IC50” value [6] was greater than 10 µg/mL. For the same binder, the “pseudovirus neutralization IC50” value [7] was 0.172 µg/mL.
